Assay results as given in patent US20220356229A1 (published 2022).
Where a chain is given by its changes, count along the chain named. Read-outs that look alike come from different tables or passages of the source.

B1: antibody 525 (antibody, V domains shown)
VH: QVQLVESGGGVVQPGRSLRLSCAASGFTFSSYAMHWVRQAPGKGLEWVTVISYNGRNKYYADSVKGRFTISRDNSKNTLYLQMNSLRAEDTAVYWCAREGLGAIVVGLDYWGQGTLVIVSS
VL: not shown
B2: antibody 274 (antibody, V domains shown)
VH: QVQLVESGGGVVQPGRSLRLSCAASGFTFSSYAMHWVRQAPGKGLEWVAVISYDGSNKYYADSVKGRFTISRDNSKNTLYLQMNSLRAEDTAVYYCARDSESDSSGWLHYFDYWGQGTLVTVSS
VL: not shown
B3: mAb 896 (antibody, V domains shown)
VH: EVQLVESGGGVVQPGGSLRLSCAASGFTFDDYAMHWVRQVPGKGLEWVSLISGDGGSTYYADSVKGRFTISRDNSKNSLYVQMNSLRTEDTALYYCVKDRGGSGWDLNHYYYGMDVWGQGTTVTVSS
VL: DIQLTQSPSFLSASVGDRVTVTCRASQGISSYLAWYQQKPGKAPKLLIYAAYTLQSGVPSRFSGSGSETEFTLTISSLQPEDFATYYCQQVKSYPLTFGGGTKVEIKR
B4: antibody 515 (antibody, V domains shown)
VH: EVQLVESGGGLVKPGGSLRLSCAASGFTFSSYSMNWVRQAPGKGLEWVSSISSSSSYIYYADSVKGRFTISRDNAKNSLYLQMNSLRAEDTAVYYCASIAAAGTLYYYYGMDVWGQGTTVTVSS
VL: not shown
B5: antibody 272 (antibody, V domains shown)
VH: QVQLVQSGAEVKKPGASVKVSCKASGYTFTTYYMHWVRQAPGQGLEWMGIINPSGGSASYAQKFQGRVTMTRDTSTSTVYMELSSLRSEDTAVYYCARDHTLVNGDYEYYYGMDVWGQGTTVTVSS
VL: SYELTQPPSVSVSPGQTARITCSGDALPKQYAYWYQQKPGQAPVSVIYKDSERPSGIPERISGSSSGTTVTLTISGVQAEDEADYYCQSADSSGTYLVFGGGTKLTVL
B6: antibody 513 (antibody, V domains shown)
VH: QVQLVESGGGVVQPGRSLRLSCAASGFTFSSYAMHWVRQAPGKGLEWVAVISYDGSNKYYADSVKGRFTISRDNSKNTLYLQMNSLRAEDTAVYYCARAGSGSYYNWFDPWGQGTLVTVSS
VL: QSALTQPASVSGSPGQSITISCTGTSSDVGGYNYVSWYQQHPGKAPKLMIYEVSNRPSGVSNRFSGSKSGNTASLTISGLQAEDEADYYCSSYTSSSTPYVFGTGTKVTVL
B7: antibody 520 (antibody, V domains shown)
VH: QVQLVESGGGVVQPGRSLRLSCAASGFTFSSYAMHWGRQAPGKGLEWVAVISYDGSNKYYADSVKGRFTISRDNSKNTLYLQMNSLRAEDTAVYYCARDGGSGWLLVGNWFDPWGQGTLVTVSS
VL: B6 VL with E52D, S97I, P99L
B8: antibody 501 (antibody, V domains shown)
VH: QVQLVQSGAEVKKPGASVKVSCKASGYTFTSYYVHWVRQAPGQSLEWMGVISPSTGSTTYAQNFQGRVTMTRDTSTTTVYMELSSLRSEDTAVYYCARDDYYDSTRYFDLWGRGTLVTVSS
VL: QSALTQPASVSGSPGQSISFSCTGTSSDIGAYNYVSWYQQHPGRAPKLMIYDVGNRPSGVSNRFSGSKSGNTASLTISGLQAEDEADYYCSSYTSSSTQVFGTGTKVTVL

What was measured:
[1] = target: T1, SARS-CoV-2 Spike (S) protein, wild type, full length (SARS-CoV-2, UniProt P0DTC2 14-1273); assay: flow cytometry, CHO cells expressing full-length Spike
[2] = target: T1, SARS-CoV-2 Spike (S) protein, wild …; assay: as above; remark: listed apart in the source
[3] = target: T2, SARS-CoV-2 Spike (S) protein, wild type, full length (SARS-CoV-2, UniProt P0DTC2 14-1208); assay: bead assay, flow cytometry
[4] = target: T2, SARS-CoV-2 Spike (S) protein, wild …; assay: bead assay, flow cytometry; remark: listed apart in the source
[5] = target: T2, SARS-CoV-2 Spike (S) protein, wild …; assay: bead assay, flow cytometry; remark: listed apart in the source
WIV1 full length Spike = WIV1 full length Spike (WIV1); assay: multiplexed bead assay, flow cytometry, antibody at […]

Binder	median fluorescence, fold over isotype control [1] [fold over isotype]	median fluorescence, fold over isotype control [2] [fold over isotype]	bead binding signal (fold over isotype) [3] [fold over isotype]	bead binding signal (fold over isotype) [4] [fold over isotype]	bead binding signal (fold over isotype) [5] [fold over isotype]	median fluorescence intensity, fold over isotype control (WIV1 full length Spike) [fold over isotype]
B1	7.47	8.7				
B2			127	944	393	
B3						2.34
B4	3.93	10.4				
B5			679	1350	852	
B6	7.37	8.42				
B7	7.29	8.9				
B8	4.87	32.4				
